Results of unrelated studies side by side (data: NIAID ChemDB).

Common to all: growth or infection tests

MIC50, MIC90 and the like: level of inhibition, or share of isolates inhibited.

compound	measure	cells	read by	dose	agent	strain or isolate	value
O=S(=O)([O-])c1cc(S(=O)(=O)[O-])c2cc(NS(=O)(=O)c3ccccc3)ccc2c1	inhibition	Human conjunctiva cells	cytopathic effect	50 µg/mL	Herpes simplex virus		0%
Cn1cc(C(=O)NCc2ccc(Cl)cc2)c(=O)c2cc(CN3CCOCC3)ccc21	inhibition	HFF	plaque count	2.4 µM	Varicella zoster virus	SM varicella isolate	90%
CCC(CC)[C@H](NC(C)=O)[C@@H]1[C@H](O)[C@@H](C(=O)O)C[C@H]1N=C(N)N	EC50	MDCK	plaque count		Influenza B virus	HONG KONG/5/72	0.041 µM
CCCC(CCC)C(NC(C)=O)C1C(N=C(N)N)CC(C(=O)O)C1O	EC50	MDCK			Influenza B virus	HONG KONG/5/72	2 µM
O=c1[nH]c(=O)n([C@@H]2O[C@H](CO)[C@@H](O)[C@@H]2O)cc1/C=C/Br	inhibition	HELF	plaque count	0.01 µg/mL	Varicella zoster virus	Ohtomo	100%
COc1ccc(-n2c(C(=O)NCc3ccccc3)c3n(c2=O)C[C@@H](C)N(C(=O)c2ccc(Br)c(Cl)c2)C3)cc1	EC50	HepG2.117	PCR		Hepatitis B virus		0.5–5 µM
Cc1cc(CCCOc2c(C)cc(-c3noc(C(F)(F)F)n3)cc2C)on1	EC50	OHIO HELA-I	cytopathic effect / visual reading		Rhinovirus	Isolate 21	1.75 µg/mL
CS[C@H]1C[C@@H](n2cnc3cc4cncnc4cc32)[C@H](O)[C@@H]1O	EC50	CV-1	cytopathic effect		Measles virus		100 µg/mL
CCCC(CCC)C(NC(C)=O)C1CC(C(=O)O)CC1N=C(N)N	EC50	MDCK			Influenza B virus	Panama/45/90	1.6 µM
Nc1ncnc2c1ncn2[C@@H]1C[C@H](N)[C@@H](O)[C@H]1O	EC50	CV-1	neutral red		Measles virus	TN1994	0.6 µg/mL
Nc1cc(S(=O)(=O)[O-])cc2cc(S(=O)(=O)[O-])ccc12	inhibition	Human amnion AV3 cells	cytopathic effect	5 µg/mL	Herpes simplex virus		0%
Oc1cccc(C=Nc2ccccc2O)c1	MIC99				Cryptococcus gattii	1913 ER	8 µg/mL
Nc1ncnc2c1ncn2C=C1CC1CO	EC90		plaque count		Human cytomegalovirus	VR4760 (ganciclovir-resistant)	6.9 µM
O=C(Nc1ccc2c(O)c(N=Nc3ccc(N=Nc4ccc(S(=O)(=O)O)cc4)cc3)c(S(=O)(=O)O)cc2c1)c1ccccc1	inhibition	Human embryonic lung cells	cytopathic effect	5 µg/mL	Adenovirus	TYPE 3	10%
C/C=C/C/C=C/CCC(=O)[C@H]1O[C@H]1C(N)=O	MIC				Escherichia coli	UB1005/PEMR2.6	20 µg/mL
CC(C)Oc1ccc(-n2c(C(=O)N[C@H](C)c3ccc(C#N)cc3)c3n(c2=O)CCN(C(=O)c2ccc(Br)c(Cl)c2)C3)cc1	EC50	HepG2.117	PCR		Hepatitis B virus		0.1–0.5 µM
Cc1cn([C@@H]2O[C@H](CO)[C@@H](O)[C@@H]2O)c(=O)[nH]c1=O	inhibition	HELF	plaque count	0.1 µg/mL	Varicella zoster virus	Ohtomo	100%
OC[C@H]1O[C@@H](n2c(Cl)nc3cc(Cl)c(Cl)cc32)[C@H](O)[C@@H]1O	EC50		virus yield		Human cytomegalovirus	C4 (D341E)	<25 µM
C[C@@H](NC(=O)c1c2n(c(=O)n1-c1ccc(OC3CC3)cc1)CCN(C(=O)c1ccc(Br)c(Cl)c1)C2)c1ccc(OCC(N)=O)cc1-n1cccn1	EC50	HepG2.117	PCR		Hepatitis B virus		>0.5 µM
Nc1ncnc2c1ncn2[C@H]1C[C@@H](S)[C@H](O)[C@@H]1O	EC50	CV-1	neutral red		Measles virus		>100 µg/mL
COc1ccc(CN2CCn3c(c4n(c3=O)CCN(C(=O)c3ccc(Br)c(Cl)c3)C4)C2=O)cc1	EC50	HepG2.2.15	PCR		Hepatitis B virus		>5 µM
CCOC(=O)c1ccc(OCCC2CCN(c3ccc(C)nn3)CC2)cc1	EC50	KB	neutral red		Rhinovirus	16/60 (ICAM-1 receptor group 4)	0.016 µM
O=c1[nH]c(=O)n([C@@H]2O[C@H](CO)[C@@H](O)[C@@H]2O)cc1/C=C/Cl	inhibition	HELF	plaque count	0.001 µg/mL	Varicella zoster virus	Kawaguchi	98%
Oc1ccccc1C=Nc1ccccc1O	MIC		broth dilution		Cryptococcus neoformans	28JF	11.3 µg/mL
CN[C@H]1CC[C@@H](c2ccc(Cl)c(Cl)c2)c2ccccc21	MFC		broth dilution		Cryptococcus neoformans	92C	10 µg/mL
O=S(=O)(O)CO	inhibition	Human embryonic lung cells	cytopathic effect	10 µg/mL	Adenovirus	TYPE 3	0%
Oc1ccccc1N=Cc1ccc2c(c1)OCO2	MIC99				Cryptococcus gattii	L-28/02	11.3 µg/mL
O=c1[nH]c(=O)n([C@H]2C[C@H](O)[C@@H](CO)O2)cc1I	inhibition	HELF	plaque count	1 µg/mL	Varicella zoster virus	Ohtomo	97%
CO[C@H]1/C=C/O[C@@]2(C)Oc3c(C)c(O)c4c(O)c(c(/C=N/N5CCN(C6CCCC6)CC5)c(O)c4c3C2=O)NC(=O)/C(C)=C\C=C\[C@H](C)[C@H](O)[C@@H](C)[C@@H](O)[C@@H](C)[C@H](OC(C)=O)[C@@H]1C	MIC				Mycobacterium avium intracellulare	141	2 µg/mL
O=C(NCc1ccccc1-c1ccncn1)c1c2n(c(=O)n1-c1ccc(OC3CC3)cc1)CCN(C(=O)c1ccc(Br)c(Cl)c1)C2	EC50	HepG2.117	PCR		Hepatitis B virus		<0.1 µM
O=[N+]([O-])c1ccc(C=Nc2ccccc2O)cc1	MIC99				Cryptococcus neoformans	WP	11.3 µg/mL
CCC(CC)[C@H](NC(C)=O)[C@@H]1[C@H](O)[C@@H](C(=O)O)C[C@H]1N=C(N)N	EC50	MDCK			Influenza A virus	Influenza A/Shandong/09/93 (H3N2)	0.17 µM
COc1ccc(-n2c(C(=O)NCc3ccc(OCC(N)=O)cc3)c3n(c2=O)CCN(C(=O)c2ccc(Br)c(Cl)c2)C3)cc1	EC50	HepG2.117	PCR		Hepatitis B virus		0.5–5 µM
C=CCc1ccc(O)c(OC)c1	MIC90		turbidity		Candida tropicalis	2858	500 µg/mL
Cc1cn([C@@H]2O[C@H](CO)[C@@H](O)[C@@H]2F)c(=O)nc1N	inhibition	HELF	plaque count	0.1 µg/mL	Varicella zoster virus	Asahikawa	100%
Cc1cc(-c2ccc(N=Nc3c(S(=O)(=O)O)cc4cc(S(=O)(=O)O)cc(N)c4c3O)c(C)c2)ccc1N=Nc1c(S(=O)(=O)O)cc2cc(S(=O)(=O)O)cc(N)c2c1O	inhibition	Human amnion AV3 cells	cytopathic effect	50 µg/mL	Herpes simplex virus		100%
CC(=O)N[C@H]1[C@H]([C@H](O)[C@H](O)CO)OC(C(=O)O)=C[C@@H]1N=C(N)N	EC50	MDCK	visual reading		Influenza A virus	H1N1 A/Bayern/09/95	3.6 µM
O=S(=O)([O-])c1ccc(NS(=O)(=O)c2ccccc2)c2c(S(=O)(=O)[O-])cccc12	inhibition	Human embryonic lung cells	cytopathic effect	10 µg/mL	Adenovirus	TYPE 3	0%
COc1ccc(-n2c(-c3cc(Cc4ccccc4)ccn3)c3n(c2=O)CCN(C(=O)c2ccc(Br)c(Cl)c2)C3)cc1	EC50	HepG2.117	PCR		Hepatitis B virus		0.5–5 µM
O=S(=O)(O)c1cc(O)c2c(O)cc(S(=O)(=O)O)cc2c1	inhibition	Human amnion AV3 cells	cytopathic effect	5 µg/mL	Herpes simplex virus		0%
Nc1ncnc2c1ncn2[C@@H]1CC[C@@H](O)[C@H]1O	EC50	CV-1	neutral red		Measles virus	BIL	>10 µg/mL

Again, the opening 4 rows:

compound	measure	cells	read by	dose	agent	strain or isolate	value
O=S(=O)([O-])c1cc(S(=O)(=O)[O-])c2cc(NS(=O)(=O)c3ccccc3)ccc2c1	inhibition	Human conjunctiva cells	cytopathic effect	50 µg/mL	Herpes simplex virus		0%
Cn1cc(C(=O)NCc2ccc(Cl)cc2)c(=O)c2cc(CN3CCOCC3)ccc21	inhibition	HFF	plaque count	2.4 µM	Varicella zoster virus	SM varicella isolate	90%
CCC(CC)[C@H](NC(C)=O)[C@@H]1[C@H](O)[C@@H](C(=O)O)C[C@H]1N=C(N)N	EC50	MDCK	plaque count		Influenza B virus	HONG KONG/5/72	0.041 µM
CCCC(CCC)C(NC(C)=O)C1C(N=C(N)N)CC(C(=O)O)C1O	EC50	MDCK			Influenza B virus	HONG KONG/5/72	2 µM

An empty or dashed field is not shown. a–b is a range or a potency band. Neighbouring rows are from separate reports. ECn: concentration that inhibits the pathogen or its effect by n%. Inhibition is in % at the dose shown (toxicity tests: loss of growth or viability).